{
  "sequences": {"note": "Protein sequences, listed by entry. Tags and fused reporters are not part of them. Residues count along the entry.", "UniProt P22303, 32-614 limits assumed": "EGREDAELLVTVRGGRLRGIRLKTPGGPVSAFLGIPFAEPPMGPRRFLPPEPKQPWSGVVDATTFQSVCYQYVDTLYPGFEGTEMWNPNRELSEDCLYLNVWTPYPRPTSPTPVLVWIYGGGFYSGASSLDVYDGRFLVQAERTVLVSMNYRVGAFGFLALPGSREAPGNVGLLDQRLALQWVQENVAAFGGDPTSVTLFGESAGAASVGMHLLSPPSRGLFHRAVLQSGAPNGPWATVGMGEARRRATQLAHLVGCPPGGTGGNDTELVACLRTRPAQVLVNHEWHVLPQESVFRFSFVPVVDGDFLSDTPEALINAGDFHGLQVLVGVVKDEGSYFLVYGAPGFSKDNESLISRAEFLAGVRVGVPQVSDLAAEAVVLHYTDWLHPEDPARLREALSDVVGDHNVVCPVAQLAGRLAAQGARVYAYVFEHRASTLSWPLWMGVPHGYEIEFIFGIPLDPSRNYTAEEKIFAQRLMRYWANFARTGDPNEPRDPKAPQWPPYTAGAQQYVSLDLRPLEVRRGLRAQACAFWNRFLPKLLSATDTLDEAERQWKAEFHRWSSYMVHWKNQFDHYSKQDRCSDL"},
  "source": "paper PMC11900278",
  "about": "“Expression, Characterization and Selective Chemical Inhibition of Essential Schistosoma mansoni Tegumental Acetylcholinesterase (SmTAChE)” (2025)",
  "key": {"[1]": {"molecular_target": "T1, rSmTAChE (Schistosoma mansoni, UniProt A0A3Q0KMM5)", "assay": "rSmTAChE kinetics and substrate specificity (modified Ellman method)", "settings": "for Kcat (turnover rate) / Km: rSmTAChE, substance used as substrate; for catalytic activity of rSmTAChE with substrate (in words): rate of hydrolysis, Figure 1B"}, "[2]": {"test_system": "native AChE on the tegumental surface of live schistosomula", "assay": "AChE activity displayed by living parasites (Michaelis–Menten kinetics)", "settings": "read-out: Km, native AChE on living schistosomula, ATCh as substrate"}, "[3]": {"molecular_target": "T1, rSmTAChE", "assay": "MLPCN-Broad Validation Library screen against rSmTAChE (384-well Ellman assay)", "settings": "inhibitors at 7.5 µM, duplicate screen"}, "[4]": {"molecular_target": "T1, rSmTAChE", "assay": "IC50 determination with rSmTAChE (Ellman, 384-well)", "settings": "for IC50: read-out: IC50 rSmTAChE, rSmTAChE"}, "[5]": {"molecular_target": "tegumental AChE activity in live schistosomula parasites (Schistosoma mansoni, UniProt A0A3Q0KMM5)", "assay": "Inhibitor impact on tegumental AChE activity of live schistosomula", "settings": "for IC50: read-out: IC50 Schistosomula, live schistosomula parasites"}, "[6]": {"molecular_target": "recombinant human AChE (rHsAChE) (Homo sapiens, UniProt P22303)", "assay": "IC50 determination with recombinant human AChE", "settings": "read-out: IC50 rHsAChE"}, "[7]": {"test_system": "cholinesterase activity from mouse brain", "settings": "earlier studies ref 65, 66; cited from earlier work"}, "[8]": {"test_system": "schistosome cholinesterase", "settings": "earlier studies ref 65, 66; cited from earlier work"}},
  "note": "Several values for one entry are separate records, joined by “and”; a condition that tells them apart may be missing. Identical values can stand only once. Like-named read-outs stand apart in the source and are kept apart here.",
  "data": [
    {"compound": "CC(=O)SCC[N+](C)(C)C", "values": [
      {"measurement": "Kcat (turnover rate)", "setting": "[1]", "result": "372.79 ± 38.6", "unit": "S^−1"},
      {"measurement": "Km", "setting": "[1]", "result": 320, "unit": "µM"},
      {"measurement": "Kcat (turnover rate)", "setting": "[1]; listed as acetylthiocholine", "result": "373 ± 39", "unit": "S^−1"},
      {"measurement": "Km", "setting": "[2]", "result": 390, "unit": "µM"}
    ]},
    {"compound": "CCCCN(CCCC)CCCOC(=O)c1ccc(N)cc1", "values": [
      {"measurement": "Inhibition (%) of rSmTAChE", "setting": "[3]; 7.5 µM", "result": 68.57, "unit": "%"},
      {"measurement": "Inhibition (%) of rSmTAChE", "setting": "[3]; listed as butacaine, 7.5 µM", "result": 69, "unit": "%"}
    ]},
    {"compound": "COc1cc(CNCCc2ccccc2F)ccc1OCC(=O)N1CCCCC1", "values": [
      {"measurement": "IC50", "setting": "[4]; listed as Compound #2", "result": 0.76, "unit": "µM"}
    ]},
    {"compound": "propionylthiocholine iodide", "values": [
      {"measurement": "Kcat (turnover rate)", "setting": "[1]", "result": "74.16 ± 0.35", "unit": "S^−1"},
      {"measurement": "Km", "setting": "[1]", "result": 140, "unit": "µM"},
      {"measurement": "catalytic activity of rSmTAChE with substrate (in words)", "setting": "[1]", "result": "Very weak activity"}
    ]},
    {"compound": "CN(C)C(=O)Oc1cccc([N+](C)(C)C)c1", "values": [
      {"measurement": "IC50", "setting": "[4]", "result": 1.29, "unit": "µM"},
      {"measurement": "IC50", "setting": "[5]", "result": 0.8, "unit": "µM"}
    ]},
    {"compound": "CCc1cc2c(=O)c(-c3ccc4c(c3)OCCO4)coc2c(CN2CCCCC2C)c1O", "note": "(stereo not drawn)", "values": [
      {"measurement": "Inhibition (%) of rSmTAChE", "setting": "[3]; 7.5 µM", "result": 49.19, "unit": "%"},
      {"measurement": "Inhibition (%) of rSmTAChE", "setting": "[3]; listed as Compound #8, 7.5 µM", "result": "~ 50%"},
      {"measurement": "IC50", "setting": "[4]", "result": 5.22, "unit": "µM"},
      {"measurement": "IC50", "setting": "[4]; listed as Compound #8", "result": 5.45, "unit": "µM"},
      {"measurement": "IC50", "setting": "[6]", "result": "> 200", "unit": "µM"}
    ]},
    {"compound": "CCOC(=O)C1=C2c3ccc4ccccc4c3CC(C)(C)N2C(=O)C1=O", "values": [
      {"measurement": "Inhibition (%) of rSmTAChE", "setting": "[3]", "result": 36.17, "unit": "%"}
    ]},
    {"compound": "butyrylthiocholine iodide", "values": [
      {"measurement": "Kcat (turnover rate)", "setting": "[1]", "result": "10.67 ± 0.22", "unit": "S^−1"},
      {"measurement": "Km", "setting": "[1]", "result": 330, "unit": "µM"},
      {"measurement": "catalytic activity of rSmTAChE with substrate (in words)", "setting": "[1]", "result": "almost no activity"}
    ]},
    {"compound": "Huperzine", "values": [
      {"measurement": "IC50", "setting": "[4]", "result": 11.9, "unit": "µM"},
      {"measurement": "IC50", "setting": "[5]", "result": 6, "unit": "µM"}
    ]},
    {"compound": "CC(C)NP(=O)(NC(C)C)OP(=O)(NC(C)C)NC(C)C", "values": [
      {"measurement": "AChE inhibition in live parasite assays (in words)", "setting": "[5]; live schistosomula", "result": "No AChE inhibition"}
    ]},
    {"compound": "CCN(CC)CCNc1ccc(CO)c2sc3ccccc3c(=O)c12", "values": [
      {"measurement": "Inhibition (%) of rSmTAChE", "setting": "[3]", "result": 60.91, "unit": "%"},
      {"measurement": "effect on cholinesterase activity from mouse brain (in words)", "setting": "[7]", "result": "not affected significantly"},
      {"measurement": "inhibition of schistosome cholinesterase (in words)", "setting": "[8]", "result": "can inhibit schistosome cholinesterase"}
    ]},
    {"compound": "COP(=O)(OC)OC=C(Cl)Cl", "values": [
      {"measurement": "IC50", "setting": "[4]", "result": 0.12, "unit": "µM"},
      {"measurement": "IC50", "setting": "[5]", "result": 0.2, "unit": "µM"}
    ]},
    {"compound": "COc1ccc(CCNCc2ccc(OCC(=O)N3CCCCC3)c(OC)c2)cc1OC", "values": [
      {"measurement": "IC50", "setting": "[4]", "result": 30.7, "unit": "µM"},
      {"measurement": "IC50", "setting": "[6]", "result": 24.3, "unit": "µM"}
    ]},
    {"compound": "Cc1ccc2c(c1C)NC(C(=O)O)C1CC=CC21", "note": "(stereo not drawn)", "values": [
      {"measurement": "Inhibition (%) of rSmTAChE", "setting": "[3]; 7.5 µM", "result": 49.44, "unit": "%"},
      {"measurement": "Inhibition (%) of rSmTAChE", "setting": "[3]; listed as #9, 7.5 µM", "result": "~ 50%"},
      {"measurement": "inhibition of rSmTAChE (in words)", "setting": "[4]; increasing concentrations of inhibitor", "result": "not able to inhibit rSmTAChE in a dose-dependent manner"}
    ]},
    {"compound": "COc1cc(CNC2CCCCCCC2)ccc1OCC(=O)N1CCCCC1", "values": [
      {"measurement": "IC50", "setting": "[4]", "result": 5.71, "unit": "µM"},
      {"measurement": "IC50", "setting": "[6]", "result": 17.5, "unit": "µM"}
    ]},
    {"compound": "CNC(=O)Oc1ccc2c(c1)[C@]1(C)CCN(C)[C@@H]1N2C", "values": [
      {"measurement": "IC50", "setting": "[4]", "result": 0.37, "unit": "µM"},
      {"measurement": "IC50", "setting": "[5]", "result": 0.26, "unit": "µM"}
    ]},
    {"compound": "N=C(N)c1ccc(OCCCCCOc2ccc(C(=N)N)cc2)cc1", "values": [
      {"measurement": "Inhibition (%) of rSmTAChE", "setting": "[3]; 7.5 µM", "result": "69% and 68.69%"},
      {"measurement": "Inhibition (%) of rSmTAChE", "setting": "[3]; listed as Compound #5, 7.5 µM", "result": "~ 69%"}
    ]},
    {"compound": "N/C(=N\\OC(=O)/C=C/c1ccccc1)c1ccc(Br)cc1", "values": [
      {"measurement": "Inhibition (%) of rSmTAChE", "setting": "[3]", "result": 33.74, "unit": "%"}
    ]},
    {"compound": "COc1cc(CNCCc2ccccc2F)ccc1OCC(=O)N1CCCCC1.Cl", "values": [
      {"measurement": "Inhibition (%) of rSmTAChE", "setting": "[3]; 7.5 µM", "result": "85% and 84.81%"},
      {"measurement": "Inhibition (%) of rSmTAChE", "setting": "[3]; listed as Compound #2, 7.5 µM", "result": "~ 85%"},
      {"measurement": "fold lower IC50 for rSmTAChE compared with human AChE", "setting": "[4]; rSmTAChE versus rHsAChE", "result": "~ 200 fold"}
    ]},
    {"compound": "COc1cccc2c1C(=O)OC2=Cc1ccc2c(c1)OCO2", "values": [
      {"measurement": "Inhibition (%) of rSmTAChE", "setting": "[3]", "result": 33.23, "unit": "%"}
    ]}
  ]
}
